Data taken from patent US10457946B2, “Methods for overcoming glucocorticoid resistance and for determining glucocorticoid resistance potential in cancer” (St. Jude Children's Research Hospital, Inc., priority 2013, dated 2019).

What was measured:
[1] = system: NALM-6 cells overexpressing CASP1; format: cell-based, human
Protocol: NALM-6 cells overexpressing CASP1 were stably transduced with lentiviral vectors (Sigma-Aldrich, St. Louis, Mo.) containing non-targeting scrambled hairpin (shNT, sequence: […] (SEQ ID NO: 13)) or shRNA hairpins targeting CASP1 (shCASP1, sequence: […] (SEQ ID NO: 14)). The two cell lines were cultured for 48 hours in the presence and absence of LPS/ATP to allow for the activation of CASP1, and subsequently analyzed on Western blot for the expression levels of CASP1 and glucocorticoid receptor (GR) (Panel A). The quantified signal intensities of 90-kDa GR and 20-kDa active CASP1 normalized for the loading control HSP90, are shown in the bar graph (Panel A). […] The sensitivity (LC50) of shCASP1 and shNT cells to prednisolone was determined by MTT assays (Panel B). […] Error bars represent S.E.M; n=4 replicate experiments.
NALM-6 cells overexpressing CASP1 co-transfected with either non-targeting scrambled hairpin (shNT; SEQ ID NO: 13) or shRNA hairpins targeting CASP1 (shCASP1; SEQ ID NO: 14) were stably transduced with lentiviral vectors (Addgene plasmid 25890; Sigma-Aldrich, St. Louis, Mo.) containing a wild-type glucocorticoid receptor (SEQ ID NO: 16) or a glucocorticoid receptor in which both CASP1 cleavage sites had been eliminated (double mutagenized GR, DM-GR (SEQ ID NO: 17)). […] The inset is a western blot depicting recombinant GR protein levels (wild-type, or double mutagenized), in cells at time of MTT drug sensitivity assays.
Leukemia cells were isolated at diagnosis from patient bone marrow aspirates. If the leukemia cell percentage from diagnostic bone marrow samples was less than ninety percent, magnetic activated cell sorting (Miltenyl Biotec, Auburn, Calif.) was performed to further enrich for leukemia cells. If red cell contamination was greater than thirty percent, red blood cell lysis was performed. Cells were centrifuged at 300 g for five minutes and resuspended at a concentration of two million cells per milliliter. […] LC50 values were determined as previously described (Holleman et al., 2004). […]

CASP1 = assay: Western blot of CASP1 and glucocorticoid receptor (GR) in CASP1 overexpressing NALM-6 cells; format: cell-based, human; details: +LPS/ATP, FIG. 9A/9C

Substance: CrmA: cytokine response modifier A, a known inhibitor of CASP1 catalytic activity, expressed by lentiviral transduction
- CC50 ([1]; CASP1 overexpressing NALM-6 cells transduced with the named gene, +LPS/ATP, MTT, mean±S.E.M., read-out: LC50 (sensitivity to glucocorticoid treatment, prednisolone)): 3.2 ± 0.2 µM
- PRED-LC50 compared with control (shNT or GFP) cells ([1]; absence of CASP1 activation (−LPS/ATP)): comparable
- fold reduction in LC50 versus GFP transfected controls ([1]; prednisolone, CASP1 overexpressing NALM-6 cells, +LPS/ATP, t-test p=0.011): 43 fold
- CASP1-induced GR cleavage (CASP1): blocked CASP1 induced GR cleavage
